Measurements from US20240254204A1 (NATIONAL UNIVERSITY OF SINGAPORE, published 2024).

Assays:
SARS-CoV-1 RBD = SARS-CoV-1 RBD (SARS-CoV); test: sVNT, cPass kit format with SARS-CoV-1 RBD-HRP; HEK293 supernatant
SARS-CoV-2 RBD = SARS-CoV-2 RBD (SARS-CoV-2); test: sVNT, cPass kit with SARS-CoV-2 RBD-HRP; HEK293 supernatant

Binder | sVNT SARS-CoV-1 (% I) (SARS-CoV-1 RBD) | sVNT SARS-CoV-2 (% I) (SARS-CoV-2 RBD)
Antibody 11 (SS6V11-E7) (antibody, V domains shown) VH: QVQLQESGPGLVKPSETLSLTCTVSGGFIGPHYWSWVRQPPGKGLEWIGYIYISGSTNYNPSLKSRLTISVDMSKSQFSLTLSSATAADTAVYYCARGGGYLETGPFEYWGQGTLVTVSS VL: DIVMTQSPLSLPVTPGEPASISCRSSQSLLQNNGYNYLAWYLQKPGQSPQLLIYLSSTRASGVPDRFSGSGSGTDFTLKISRVEAEDVGVYYCMQSLQIPGTFGQGTRLEIK | 96.9% | 96.2%
Antibody 20 (SS6V20-F5) (antibody, V domains shown) VH: QVQLQESGPGLVKPSETLSLTCTVSGGSIIGYYWSWIRQPPGKGLEWIGYIYFSANTNYNPSLKSRVTMSVDMSKKQFSLKLRSVTAADTAVYYCARGGGYLETGPLDFWGQGILVTVSS VL: DIVMTQSPLSLPVTPGEPASISCRSSQSLMQLNGYNYLAWYLQRPGQSPQLLIYLGSTRASGVPDRFSGSGSGTDFTLKITRVEAEDVGVYYCMQGLQIPGTFGQGTRLEIK | 96.7% | 96.1%
Antibody 13 (SS6V13-F1) (antibody, V domains shown) VH: QVQLQESGPGLVKPSETLSLTCSVSGVSILGSYWGWIRQPPGTGLQWIGYIYFSENTNYNPSLQSRVTMSLDTSKNLLSLKLSSVTAADTAVYYCARGGGYLETGPFDSWGQGTLVTVSS VL: DIVMTQSPLSLPVTPGEPASISCRSSQGLVQSNGYNYLAWYLQKPGQSPQLLIYLGSNRASGVPDRFSGSGSGTDFTLKISRVEAEDVGVYYCMQGLQTPGTFGQGTRLEIK | 95.9% | 94.5%
Antibody 3 (SS6V3-G2) (antibody, V domains shown) VH: QVQLVQSGAEVKRPGASVKVSCKASGYSFTNSGITWVRQAPGQGLEWMGGTNFYNGITNYPQNIQGRVTMTTDTSTNTAYLELTSLRSEDTAMYYCALNRVAIFNDGYNPLGYWGQGTLVTVSS VL: DIVMTQSPDSLAVSLGERATINCKSSQSVLYSSNNKNYLAWYQQKPGQPPKLLIYWASSRESGVPDRFSGSGSGTDFTLTIDRLQAEDVAIYYCQQYFSSPFSFGGGTKVEIK | 8.88% | 17.7%
Antibody 4 (SS6V4-A1) (antibody, V domains shown) VH: EVQLVQSGAEVKKPGEALKISCQGSGYTFSMYWIAWVRQMPGKGLEWMGIIYPDDSDRRYSPSFQGQVTISVDKSISTAYLQWSSLKASDTAIYYCARLQNGYSYGLLENWGQGTLVTVSS VL: DIVMTQSPDSLTVSLGERATINCKSSQSTLYRSNNKNYLAWYQQKPGQPPKLLINWASTREYGVPDRFSGSGSGTDFTLTISSLQAEDVAVYYCQQYYSYPWTFGQGTKVEIK | 15.3% | 22.4%
